A mixed list of measured activities; the numbers were collected in NIAID ChemDB.

All rows: growth or infection tests; agent: HIV-1; cells: MT-4; read-out: EC95

ECn is the concentration giving n% inhibition of infection, replication or growth. Blank or dashed fields: not listed here. Conditions beyond the fields shown may differ between rows.

SMILES,strain or isolate,changes,method,setting,value
CC(C)(C)NC(=O)[C@@H]1C[C@@H]2CCCC[C@@H]2CN1C[C@@H](O)[C@H](Cc1ccccc1)NC(=O)O[C@H]1CO[C@@]2(C)OCC[C@@H]12,IIIB,,p24,,>0.2 µM
O=C(NCc1ccccc1)c1nc(-c2ccccc2)[nH]c(=O)c1O,,,p24,10% FBS,>10 µM
CCc1cc(NCc2nc3c(C)ccc(C)c3o2)c(=O)[nH]c1C,IIIB,,p24,,0.025 µM
Cc1ccnc(C(=O)CC(=O)c2cc(Cc3ccccc3)cc(CN3CCCS3(=O)=O)c2)c1,IIIB,,p24,,0.51 µM
Cc1ccnc2c1NC(=O)c1cccnc1N2C1CC1,rA17,,p24,,100 µM
O=C(NCc1ccc(F)cc1)c1nc[nH]c(=O)c1O,IIIB,,p24 / ELISA,50% human serum,>10 µM
Cc1ccccc1CNC(=O)[C@H]1N(C[C@@H](O)C[C@@H](Cc2ccccc2)C(=O)N[C@H]2c3ccccc3OC[C@H]2O)CSC1(C)C,,PR-K60C,p24,,>1 µM
COc1ccc(Cc2nc(C(=O)NCc3ccc(F)cc3)c(O)c(=O)[nH]2)cc1OC,IIIB,,p24,10% FBS,>10 µM
Cc1cc(C)c(-n2nnnc2SCC(=O)Nc2c(Cl)cccc2Cl)c(C)c1,,,p24,50% human serum,>5 µM
CCNC(=O)[C@@H]1CN(C(C)(C)c2cc3cnccc3o2)CCN1C[C@@H](O)C[C@@H](Cc1ccccc1)C(=O)N[C@H]1c2ccccc2OC[C@H]1O,NL4-3,,p24,,0.031 µM
O=C(NCc1ccc(F)cc1)c1nc(Cc2ccccc2)[nH]c(=O)c1O,,,p24,50% human serum,>10 µM
CC(C)CN1CCCCC1c1nc(C(=O)NCc2ccc(F)cc2)c(O)c(=O)[nH]1,IIIB,,p24,10% FBS,1 µM
Cn1c(C2COCCN2C(=O)OC(C)(C)C)nc(C(=O)NCc2ccc(F)cc2)c(O)c1=O,IIIB,,p24 / ELISA,50% human serum,>1 µM
CC(C)(c1cc2cnccc2o1)N1CCN(C[C@@H](O)C[C@@H](Cc2ccccc2)C(=O)N[C@H]2c3ccccc3OC[C@H]2O)[C@H](C(=O)NCC2CC2)C1,NL4-3,,p24,,0.046 µM
Cc1cc(C)c(-n2nnnc2SCC(=O)Nc2ccc(C(=O)NCCCN(C)C)cc2Cl)c(C)c1,,,p24,10% FBS,0.062 µM
CC(=O)N[C@H]1C[C@@H](c2nc(C(=O)NCc3ccc(F)cc3)c(O)c(=O)n2C)N(C)C1,IIIB,,p24 / ELISA,50% human serum,>1 µM
Cc1cc(C)c(-n2nnnc2SCC(=O)Nc2ccc(OCCCN(C)C)cc2Cl)c(C)c1,,,p24,10% FBS,0.031 µM
CC(C)(C)NC(=O)[C@@H]1C[C@@H]2CCCC[C@@H]2CN1C[C@@H](O)[C@H](Cc1ccccc1)NC(=O)O[C@@H]1CCS(=O)(=O)C1,IIIB,,p24,,>0.8 µM
CC1CCC(c2nc(C(=O)NCc3ccc(F)cc3)c(O)c(=O)n2C)N1C,IIIB,,p24 / ELISA,10% FBS,>1 µM
CC(C)(C)NC(=O)[C@@H]1C[C@@H]2CCCC[C@@H]2CN1C[C@@H](O)[C@H](Cc1ccccc1)NC(=O)[C@H](CC(N)=O)NC(=O)c1ccc2ccccc2n1,NL4-3,PR-L10R M46I,p24,,0.025 µM
O=C(CSc1nnnn1-c1cc(Cl)ccc1Cl)Nc1ccccc1[N+](=O)[O-],,,p24,10% FBS,0.078 µM
CN(C(=O)Cn1cccn1)C1CCCn2c1nc(C(=O)NCc1ccc(F)cc1)c(O)c2=O,IIIB,,p24 / ELISA,10% FBS,>1 µM
CN1CCOCC1c1nc(C(=O)NCc2ccc(F)c(Cl)c2)c(O)c(=O)n1C,IIIB,,p24 / ELISA,10% FBS,<0.008 µM
CC(C)(C)NC(=O)[C@@H]1C[C@@H]2CCCC[C@@H]2CN1C[C@@H](O)[C@H](Cc1ccccc1)NC(=O)O[C@@H]1CO[C@@H]2OCC[C@@H]21,IIIB,,p24,,0.2 µM
CC(C)CN(C[C@@H](O)[C@H](Cc1ccccc1)NC(=O)[C@H](CC(N)=O)NC(=O)c1ccc2ccccc2n1)C(=O)NC(C)(C)C,NL4-3,PR-M46I V82T,p24,,0.4 µM
CC(C)(c1cc2cnccc2o1)N1CCN(C[C@@H](O)C[C@@H](Cc2ccccc2)C(=O)N[C@H]2c3ccccc3OC[C@H]2O)[C@H](C(=O)NC2CC2)C1,NL4-3,,p24,,0.062 µM
C[C@@H]1C[C@H](OC(=O)N[C@@H](Cc2ccccc2)[C@H](O)CN2C[C@H]3CCCC[C@H]3C[C@H]2C(=O)NC(C)(C)C)CS1(=O)=O,IIIB,,p24,,>0.4 µM
CCc1cc(NCc2nc3c(Cl)ccc(Cl)c3o2)c(=O)[nH]c1C,IIIB,,,,0.05 µM
CCc1cc(NCc2nc3ccccc3o2)c(=O)[nH]c1C,rHXB2,,p24,,0.2 µM
C[C@@H]1C[C@@H](c2nc(C(=O)NCc3ccc(F)cc3)c(O)c(=O)n2C)N(C)C1,IIIB,,p24 / ELISA,50% human serum,>1 µM
O=C1Nc2ccc(Cl)cc2C(C#Cc2nccs2)(C2CC2)N1,IIIB,,,,0.012 µM
O=C(CSc1nnnn1-c1ccc(Cl)c(Cl)c1)Nc1ccccc1[N+](=O)[O-],,,p24,10% FBS,>5 µM
CN(Cc1ccccc1)C(=O)c1nc(C2COCCN2C)n(C)c(=O)c1O,IIIB,,p24 / ELISA,50% human serum,>8 µM
CC(C)(c1cc2cnccc2o1)N1CCN(C[C@@H](O)C[C@@H](Cc2ccccc2)C(=O)N[C@H]2c3ccccc3OC[C@H]2O)[C@H](C(=O)Nc2ccccc2)C1,NL4-3,,p24,,0.25 µM
CN(C)Cc1nc(C(=O)NCc2ccc(F)cc2)c(O)c(=O)[nH]1,,,p24,50% human serum,>1 µM
Cc1ccc(Cl)cc1-n1nnnc1SCC(=O)Nc1ccccc1[N+](=O)[O-],,,p24,50% human serum,0.25 µM
O=C(O)C(=O)CC(=O)c1cc(OCc2ccccc2)cc(OCc2ccccc2)c1,IIIB,,p24,,17.4 µM
CC(C)=CCN1c2cc(Cl)cc3[nH]c(=S)n(c23)C[C@@H]1C,,RT-D67N K70R T215Y K219Q,,,0.05 µM
O=C(NCc1ccc(F)cc1)c1nc(-c2cccs2)[nH]c(=O)c1O,,,p24,50% human serum,>10 µM
CC(C)(c1cc2cnccc2o1)N1CCN(C[C@@H](O)C[C@@H](Cc2ccccc2)C(=O)N[C@H]2c3ccccc3OC[C@H]2O)[C@H](C(=O)NCc2ccccc2)C1,NL4-3,,p24,,0.125 µM
CN(C)Cc1ccc(-c2nc(C(=O)NCc3ccc(F)cc3)c(O)c(=O)[nH]2)cc1,IIIB,,p24,10% FBS,>10 µM
CC(C)=CCN1Cc2cccc3[nH]c(=S)n(c23)C[C@@H]1C,IIIB,,,,0.2 µM
CC(C)(C)NC(=O)[C@@H]1C[C@@H]2CCCC[C@@H]2CN1C[C@@H](O)[C@H](Cc1ccccc1)NC(=O)OC12CCOC1OCC2,IIIB,,p24,,>0.2 µM
CN(CCc1nc(C(=O)NCc2ccc(F)cc2)c(O)c(=O)[nH]1)Cc1ccccc1,IIIB,,p24,50% human serum,>10 µM

For reference, 4 entries again:

| SMILES | strain or isolate | changes | method | setting | value |
|---|---|---|---|---|---|
| CN(C)Cc1ccc(-c2nc(C(=O)NCc3ccc(F)cc3)c(O)c(=O)[nH]2)cc1 | IIIB |  | p24 | 10% FBS | >10 µM |
| CN(Cc1ccccc1)C(=O)c1nc(C2COCCN2C)n(C)c(=O)c1O | IIIB |  | p24 / ELISA | 50% human serum | >8 µM |
| CN(C(=O)Cn1cccn1)C1CCCn2c1nc(C(=O)NCc1ccc(F)cc1)c(O)c2=O | IIIB |  | p24 / ELISA | 10% FBS | >1 µM |
| Cc1ccnc2c1NC(=O)c1cccnc1N2C1CC1 | rA17 |  | p24 |  | 100 µM |